System: Mycobacterium tuberculosis H37Rv growth inhibition, no glycerol
Test: Mycobacterium tuberculosis H37Rv growth inhibition, no glycerol, confirmatory dose response (AID 449764);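 further: growth read after 7 days of incubation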

Compound: O=C(OC1CN2CCC1CC2)C1c2ccccc2Oc2ccccc21 (stereo unspecified)
- IC50: 17.8 µM
